The series concerns HeLa cells. The series can be described thus: Cytotoxicity in HeLa cells (ATP content, ATPlite kit); SI calculated as CC50/EC50. The format is cell-based. As to conditions: SI is calculated as CC50/EC50, three days.

No dose or concentration is given here for some results.

Take `N#CCCCn1c(CN2C(=O)C3(CNC3)c3ccccc32)cc2cc(Cl)ccc21` [Compound 59, 4-{5-chloro-2-[(2′-oxospiro[azetidine-3,3′-indol]-1′(2′H )-yl)-methyl]-1H-indol-1-yl}butanenitrile]: the SI is reported as 14980.

On to `CC(=O)N1CCC2(CC1)C(=O)N(Cc1nc3cc(Cl)ccc3n1CCCS(C)(=O)=O)c1cnccc12` [Compound 42, 1-acetyl-1′-((5-chloro-1-(3-(methylsulfonyl)propyl)-1H-benzo[d]imidazol-2-yl)methyl)spiro[piperidine-4,3′-pyrrolo-[2,3-c]pyridin]-2′(1′H)-one], for which the SI is listed as above 655360.

Turning to `CC(C)(O)C(=O)N1CCC2(CC1)C(=O)N(Cc1nc3cc(Cl)ccc3n1CCCCO)c1cnccc12` [Compound 164, 1′-{[5-Chloro-1-(4-hydroxybutyl)-1H-benzimidazol-2-yl]methyl}-1-(2-hydroxy-2-methylpropanoyl)spiro[piperidine-4,3′-pyrrolo[2,3-c]pyridin]-2′(1′H)-one], the SI_TOX-HELA_wt is listed as above 800424.

With `O=C1N(Cc2nc3nc(Cl)ccc3n2CCCC(F)(F)F)c2cnccc2C12CCOCC2` [Compound 75, 1′-((5-chloro-1-(4,4,4-trifluorobutyl)-1H-imidazo[4,5-b]-pyridin-2-yl)methyl)-2,3,5,6-tetrahydrospiro[pyran-4,3′-pyrrolo[2,3-c]pyridin]-2′(1′H)-one], the SI is recorded as above 21707.5.

On to `CC(C)NC(=O)N[C@H]1C[C@@]2(C1)C(=O)N(Cc1nc3cc(Cl)ccc3n1CCCC#N)c1ccccc12` [Compound 144, 1-((1r,3r)-1′-((5-chloro-1-(3-cyanopropyl)-1H-benzo[d]imidazol-2-yl)methyl)-2′-oxospiro[cyclobutane-1,3′-indolin]-3-yl)-3-isopropylurea], for which the SI_TOX-HELA_wt is listed as above 435994.

Take `CS(=O)(=O)CCCn1c(CN2C(=O)C3(CCN(c4ccc(Cl)nn4)CC3)c3cc(Br)ccc32)nc2cc(Cl)ccc21` [Compound 20, 5-bromo-1-((5-chloro-1-(3-(methylsulfonyl)propyl)-1H-benzo[d]imidazol-2-yl)methyl)-1′-(6-chloropyridazin-3-yl)spiro[indoline-3,4′-piperidin]-2-one]: the SI is on record as 1880.

Consider `O=C1CC2(C1)C(=O)N(Cc1nc3cc(Cl)ccc3n1CCCCF)c1ccccc12` [Compound 158, 1-{[5-Chloro-1-(4-fluorobutyl)-1H-benzimidazol-2-yl]methyl}-3H-spiro[cyclobutane-1,3′-indole]-2′,3(1′H)-dione], for which the SI_TOX-HELA_wt is given as 78873.

For the molecule `CC(C)(O)C(=O)N1CCC2(CC1)C(=O)N(Cc1nc3cc(Cl)ccc3n1CCCC#N)c1cnccc12` [Compound 107, 4-(5-Chloro-2-{[1-(2-hydroxy-2-methylpropanoyl)-2′-oxo-spiro[piperidine-4,3′-pyrrolo[2,3-c]pyridin]-1′(2′H)-yl]-methyl}-1H-benzimidazol-1-yl)butanenitrile], the SI_TOX-HELA_wt is above 1.252e+006.

In the case of `CS(=O)(=O)CCCn1c(CN2C(=O)C3(CCN(S(=O)(=O)C4CC4)CC3)c3ccccc32)nc2cc(Cl)ccc21` [Compound 35, 1-({5-chloro-1-[3-(methylsulfonyl)propyl]-1H-benzimidazol-2-yl}methyl)-1′-(cyclopropylsulfonyl)-spiro[indole-3,4′-piperidin]-2(1H)-one], the SI is 65535.

For the molecule `CS(=O)(=O)CCCn1c(CN2C(=O)C3(CCOCC3)c3cnccc32)cc2cc(Cl)ccc21` [Compound 57], the SI is on record as 842.91.

Take `N#CCCCn1c(CN2C(=O)C3(CCN(C(=O)OCCO)CC3)c3ccncc32)cc2cc(Cl)ccc21` [Compound 147, 2-Hydroxyethyl 1′-{[5-chloro-1-(3-cyanopropyl)-1H-indol-2-yl]methyl}-2′-oxo-1′,2′-dihydro-1H-spiro[piperidine-4,3′-pyrrolo[2,3-c]pyridine]-1-carboxylate]: the SI_TOX-HELA_wt is recorded as 872087.

Consider `COC(=O)N1CCC2(CC1)C(=O)N(Cc1nc3cc(Cl)ccc3n1CCCC#N)c1cnccc12` [Compound 98, Methyl 1′-{[5-chloro-1-(3-cyanopropyl)-1H-benzimidazol-2-yl]methyl}-2′-oxo-1′,2′-dihydro-1H-spiro[piperidine-4,3′-pyrrolo[2,3-c]pyridine]-1-carboxylate], for which the SI_TOX-HELA_wt was above 1.465e+006.

Consider `CNC(=O)OC1CC2(C1)C(=O)N(Cc1nc3cc(Cl)ccc3n1CCCS(C)(=O)=O)c1ccccc12` [Compound 104, (1R,3R)-1′-((5-chloro-1-(3-(methylsulfonyl)propyl)-1H-benzo[d]imidazol-2-yl)methyl)-2′-oxospiro[cyclobutane-1,3′-indoline]-3-yl methylcarbamate], for which the SI_TOX-HELA_wt is 3927534.

Regarding `N#CCCCn1c(CN2C(=O)C3(CCN(C(=O)C(O)(C(F)(F)F)C(F)(F)F)CC3)c3ccncc32)nc2cc(Cl)ccc21` [Compound 181, 4-[5-Chloro-2-({2′-oxo-1-[3,3,3-trifluoro-2-hydroxy-2-(trifluoromethyl)propanoyl]spiro[piperidine-4,3′-pyrrolo[2,3-c]pyridin]-1′(2′H)-yl}methyl)-1H-benzimidazol-1-yl]butanenitrile], the SI_TOX-HELA_wt is recorded as 271188.

In the case of `N#CCCCn1c(CN2c3ccccc3[C@]3(C[C@@H](NC(=O)OC4CC4)C3)C2=O)nc2cc(Cl)ccc21` [Compound 126, cyclopropyl ((1r,3r)-1-((5-chloro-1-(3-cyanopropyl)-1H-benzo[d]imidazol-2-yl)methyl)-2′-oxospiro[cyclobutane-1,3′-indolin]-3-yl)carbamate], the SI_TOX-HELA_wt is recorded as 199719.

Turning to `CS(=O)(=O)CCCn1c(CN2C(=O)C3(CN(S(=O)(=O)C4CC4)C3)c3ccccc32)nc2cc(Cl)ccc21` [Compound 29, 1′-({5-chloro-1-[3-(methylsulfonyl)propyl]-1H-benzimidazol-2-yl}methyl)-1-(cyclopropylsulfonyl)-spiro[azetidine-3,3′-indol]-2′(1′H)-one], the SI was above 660861.

Consider `N#CCCCn1c(CN2C(=O)C3(CN(S(=O)(=O)c4ccc(F)cc4)C3)c3ccccc32)nc2cc(Cl)ccc21` [Compound 93, 4-[5-Chroro-2-({1-[(4-fluorophenyl)sulfonyl]-2′-oxospiro-[azetidine-3,3′-indol]-1′(2′H)-yl}methyl)-1H-benzimidazol-1-yl]butanenitrile], for which the SI_TOX-HELA_wt is above 62290.2.

For `N#CCCCn1c(COC2CC3(C2)C(=O)N(Cc2nc4cc(Cl)ccc4n2CCCC#N)c2ccccc23)nc2cc(Cl)ccc21` [Compound 110, 4-(5-chloro-2-(((1S,3S)-1′-((5-chloro-1-(3-cyanopropyl)-1H-benzo[d]imidazol-2-yl)methyl)-2′-oxospiro[cyclobutane-1,3′-indoline]-3-yloxy)methyl)-1H-benzo[d]imidazol-1-yl)butanenitrile], the SI_TOX-HELA_wt is above 69368.1.

On to `CS(=O)(=O)CCCn1c(CN2C(=O)C3(CCCC3)c3ccncc32)cc2cc(Cl)ccc21` [Compound 54, 1′-({5-chloro-1-[3-(methylsulfonyl)propyl]-1H-indol-2-yl}methyl)spiro [cyclopentane-1,3′-pyrrolo[2,3-c]pyridin]-2′(1′H)-one], for which the SI is recorded as 20155.

Regarding `CC(C)(O)C(=O)N1CC[C@]2(C1)C(=O)N(Cc1nc3cc(Cl)ccc3n1CCCS(C)(=O)=O)c1ccccc12` [Compound 122, (S)-1-((5-chloro-1-(3-(methylsulfonyl)propyl)-1H-benzo[d]imidazol-2-yl)methyl)-1′-(2-hydroxy-2-methylpropanoyl)spiro[indoline-3,3′-pyrrolidin]-2-one], the SI_TOX-HELA_wt was above 12032.3.

For `CS(=O)(=O)CCCn1c(CN2C(=O)C3(CCOCC3)c3ccccc32)nc2cc(Cl)ccc21` [Compound 40, 1-((5-chloro-1-(3-(methylsulfonyl)propyl)-1H-benzo[d]-imidazol-2-yl)methyl)-2′,3′,5′,6′-tetrahydrospiro[indoline-3,4′-pyran]-2-one], the SI is listed as above 43461.

Regarding `CC(=O)N1CCC2(CC1)C(=O)N(Cc1cc3cc(Cl)ccc3n1CCCS(C)(=O)=O)c1cnccc12` [Compound 56, 1-acetyl-1′-({5-chloro-1-[3-(methylsulfonyl)propyl]-1H-indol-2-yl}methyl)spiro[piperidine-4,3′-pyrrolo[2,3-c]pyridin]-2′(1′H)-one], the SI was above 298202.

For `CS(=O)(=O)CCCn1c(CN2C(=O)C3(CN(C(=O)C(F)(F)F)C3)c3ccccc32)nc2cc(Cl)ccc21` [Compound 31, 1-({5-chloro-1-[3-(methylsulfonyl)propyl]-1H-benzimidazol-2-yl}methyl)-1-(trifluoroacetyl)spiro-[azetidine-3,3′-indol]-2′(1′H)-one], the SI was above 34055.7.

`CS(=O)(=O)CCCn1c(CN2C(=O)C3(CNC3)c3ccccc32)cc2cc(Cl)ccc21` [Compound 134, 1′-({5-Chloro-1-[3-(methylsulfonyl)propyl]-1H-indol-2-yl}methyl)spiro[azetidine-3,3′-indol]-2′(1′H)-one]: the SI_TOX-HELA_wt is 21330.

For the molecule `CS(=O)(=O)CCCn1c(CN2C(=O)C3(CC(O)C3)c3ccccc32)nc2cc(Cl)ccc21` [Compound 12, (3R)-1′-({5-chloro-1-[3-(methylsulfonyl)propyl]-1H-benzimidazol-2-yl}methyl)-3-hydroxyspiro[cyclobutane-1,3′-indol]-2′(1′H)-one], the SI is listed as above 194729.

Consider `CC(=O)OCCOC(=O)N1CCC2(CC1)C(=O)N(Cc1cc3cc(Cl)ccc3n1CCCC#N)c1cnccc12` [Compound 150, 2-(Acetyloxy)ethyl 1′-{[5-chloro-1-(3-cyanopropyl)-1H-indol-2-yl]methyl}-2′-oxo-1′,2′-dihydro-1H-spiro[piperidine-4,3′-pyrrolo-[2,3-c]pyridine]-1-carboxylate], for which the SI_TOX-HELA_wt is reported as 862700.

On to `CC(C)(O)C(=O)N1CC2(C1)C(=O)N(Cc1nc3cc(Cl)ccc3n1CCCCO)c1ccccc12` [Compound 175, 1′-{[5-Chloro-1-(4-hydroxybutyl)-1H-benzimidazol-2-yl]methyl}-1-(2-hydroxy-2-methylpropanoyl)spiro[azetidine-3,3′-indol]-2′(1′H)-one], for which the SI_TOX-HELA_wt is given as above 1.346e+006.

The values above are taken from patent US9617289B2, “RSV antiviral compounds” (JANSSEN R&D IRELAND, priority 2012, dated 2017).
